Anti-infective test results gathered from many reports (values: NIAID ChemDB through PubChem).

Common to all: whole-cell or culture tests; species: Mycobacterium avium; read-out: MIC

Conditions beyond the fields shown may differ between rows. Two numbers with a dash give a range or band. Blank or dashed fields: not listed here.

smiles,strain,result
O=C(CCC(=O)Nc1ccc(F)cc1)Nc1ccc(F)cc1,NO 80/72,1000 µM
CCCCCCCCCCCCCCCCSc1ccnc(C(N)=S)c1,80/72,2000 µM
CC(C)Sc1ncnc2ccccc12,CNCTC MY66/72,32 µM
O=[N+]([O-])c1cc(Sc2nc3ccc(I)cc3[nH]2)cc([N+](=O)[O-])c1,MY330/88,32 µM
COc1ccc(/C=N/N(C(=O)c2ccncc2)C(=O)c2cnccn2)cc1,ATCC49601,>16 µg/mL
COc1ccccc1/C=N/N=C(\N)c1ccncc1,INH resistant,128 µg/mL
CC(C)(C)Sc1ccnc(C(N)=S)c1,80/72,250 µM
C[C@@H]1CN(c2c(F)c(N)c3c(=O)c(C(=O)O)cn(C4CC4)c3c2F)C[C@H](C)N1,11 strains,0.63–10 µg/mL
CCCCCCCCCCCCSc1ccnc(C(N)=S)c1,80/72,500 µM
CCCCCCCSc1cc(C(N)=S)cc(SCCCCCC)n1,80/72,250 µM
S=c1nn[nH]n1-c1ccc(Cl)c(Cl)c1,MY330/88,>500 µM
CC(C)(C)c1ccc(COC(Cn2ccnc2)c2ccc(Cl)cc2Cl)cc1,CIP103317,2 µg/mL
COc1cc(/C=N/N=C(\N)c2ccncc2)cc(OC)c1,INH resistant,256 µg/mL
Cc1c(CN2CCN(C)CC2)cc(-c2ccc(Cl)cc2)n1-c1ccc(Cl)cc1,CIP103317,0.4 µg/mL
O=[N+]([O-])c1cc(Sc2nc3ccc(Br)cc3[nH]2)cc([N+](=O)[O-])c1,MY330/88,62.5 µM
C[C@@H]1CN(c2c(F)c(N)c3c(=O)c(C(=O)O)cn(C4CC4)c3c2F)C[C@H](C)N1,101,4 µg/mL
C=CCSc1ncnc2ccccc12,D 5/93,250 µM
NC(=S)c1cc(SCc2ccc([N+](=O)[O-])cc2[N+](=O)[O-])ccn1,CNCTC MY330/88,15.85 µM
COc1ccc(/C=N/N(C(=O)c2ccncc2)C(=O)c2cnccn2)c(O)c1,ATCC49601,>16 µg/mL
Cc1ccc(C(=O)Nc2cnccn2)c(O)c1,MY330/88,62.5 µM
Cc1ccc(/C=N/N=C(\N)c2ccncc2)c(C)c1,INH resistant,128 µg/mL
N#Cc1cc(SCc2cc([N+](=O)[O-])cc([N+](=O)[O-])c2)ccn1,CNCTC MY330/88,30.9 µM
CCC(C)c1ccc(NC(=O)CCC(=O)Nc2ccc(C(C)CC)cc2)cc1,NO 80/72,63 µM
CCCCCSc1ccnc(C(N)=S)c1,80/72,60 µM
CC(C)N=C(N)/N=C(\N)NOCCCOc1cc(Cl)c(Cl)cc1Cl,101,19.5 µg/mL
CCCCCCOc1cccc(NC(=O)OCCN2CCOCC2)c1,MY330/88,62.5 µM
N#Cc1ccc(-n2c(=O)oc3cc(Cl)ccc3c2=O)cc1,CNCTC MY330/88,16 µM
NC(=S)c1cc(SC2CCCCC2)ccn1,80/72,60 µM
COc1cc(/C=N/N(C(=O)c2ccncc2)C(=O)c2cnccn2)ccc1O,ATCC49601,>16 µg/mL
O=c1oc2ccc(F)cc2c(=O)n1-c1cccc([N+](=O)[O-])c1,CNCTC MY330/88,31 µM
Clc1ccc(C(Cn2ccnc2)OC/C=C/c2ccccc2)cc1,CIP103317,1 µg/mL
CCCCCCCC(CCCCCCC)NC(=O)NC(CCC(=O)O)(CCC(=O)O)CCC(=O)O,VA14,54 µg/mL
CCCCCCSc1cc(C(N)=O)cc(SCC)n1,80/72,250 µM
COc1ccc(C(=O)c2ccc(-c3ccc(Br)cc3)cc2)cc1,,681 µM
FC(F)(F)c1nc2cc(Cl)c(Cl)cc2[nH]1,MY330/88,62.5 µM
Clc1ccc(C(Cn2ccnc2)OCc2ccc(-c3ccccc3)cc2)cc1,CIP103317,0.5 µg/mL
CCCCCCCN(CCCCCCC)C(=O)NC(CCC(=O)O)(CCC(=O)O)CCC(=O)O,VA14,18 µg/mL
N/C(=N\N=C\c1ccccc1Cl)c1ccncc1,INH resistant,16 µg/mL
O=[N+]([O-])c1cc(Sc2nc3c(Cl)cc(Cl)cc3[nH]2)cc([N+](=O)[O-])c1,MY330/88,125 µM
CCCCCCOc1cccc(NC(=O)OCCN2CCCCC2)c1,MY330/88,16 µM
CCCCCCSc1cc(C(N)=S)cc(SCCCCC)n1,80/72,125 µM
CCCCCCCCCN(CCCCCCCCC)C(=O)NC(CCC(=O)O)(CCC(=O)O)CCC(=O)O,VA14,18 µg/mL
CCSc1ncnc2ccccc12,CNCTC MY80/72,500 µM
C[C@H]1NCc2cc(-c3ccc4c(=O)c(C(=O)O)cn(C5CC5)c4c3OC(F)F)ccc21,1 isolates,16 µg/mL
CCCCSc1cc(C(N)=S)cc(Br)n1,80/72,250 µM
CCCCCCCCCCCCCCCCCCCCCCC(=O)NC(C)(CCC(=O)O)CCC(=O)O,VA14,144 µg/mL
Cc1ccc(-n2c(=O)oc3ccccc3c2=O)cc1,CNCTC MY330/88,31 µM
CCCCCCSc1ccnc(C(N)=S)c1,80/72,30 µM
Cc1c(CN2CCSCC2)cc(-c2ccccc2)n1-c1ccc(F)cc1,,2 µg/mL
CCCCCCCSc1cc(C(N)=O)cc(Br)n1,80/72,>1000 µM
Clc1ccc(C(Cn2ccnc2)OCc2cccc3ccccc23)cc1,CIP103317,1 µg/mL
O=c1oc2cc(Cl)ccc2c(=O)n1-c1cccc([N+](=O)[O-])c1,CNCTC MY330/88,16 µM
N/C(=N\N=C\c1ccccc1Br)c1ccncc1,INH resistant,64 µg/mL
CCCCSc1ncnc2ccccc12,CNCTC MY66/72,32 µM
O=C(Nc1cnccn1)c1cc(Cl)ccc1O,MY330/88,250 µM
NC(=S)c1cc(SCc2ccccc2)ccn1,CNCTC MY330/88,15.85 µM
N/C(=N\N=C\c1ccc([N+](=O)[O-])cc1)c1ccncc1,INH resistant,256 µg/mL
Cc1c(CN2CCSCC2)cc(-c2ccc(F)cc2)n1-c1ccc(Cl)cc1,,>16 µg/mL
CCCCCCOc1cccc(NC(=O)OCCN(C)C)c1,MY330/88,16 µM
Cc1cc(NC(=O)c2ccc(Cl)cc2O)no1,MY330/88,125 µM
Clc1ccc(C(Cn2ccnc2)OCc2ccc(-c3ccccc3)cc2)c(Cl)c1,CIP103317,8 µg/mL
N#Cc1cc(SCc2cccc(F)c2)ccn1,CNCTC MY330/88,61.66 µM
CCCCCCCCN(CCCCCCCC)C(=O)NC(CCC(=O)O)(CCC(=O)O)CCC(=O)O,VA14,23 µg/mL
NC(=S)c1cc(SCc2cccc([N+](=O)[O-])c2)ccn1,CNCTC MY330/88,7.94 µM
COc1ccc(C(=O)Nc2cncs2)c(O)c1,MY330/88,500 µM
NC[C@@H]1O[C@H](O[C@H]2[C@@H](O)[C@H](O[C@@H]3[C@@H](O)[C@H](N)C[C@H](N)[C@H]3O[C@H]3O[C@H](CO)[C@@H](O)C[C@H]3N)O[C@@H]2CO)[C@H](N)[C@@H](O)[C@@H]1O[C@H]1O[C@H](CO)[C@@H](O)[C@H](O)[C@@H]1O,10 strains,50 µg/mL
O=C(c1ccncc1)N(NCc1cccc(Cl)c1)C(=O)c1cnccn1,ATCC49601,>16 µg/mL
Cc1ccc(C(Cn2ccnc2)OCc2ccc(C(C)(C)C)cc2)cc1,CIP103317,2 µg/mL
CCSc1ccnc(C(N)=S)c1,80/72,250 µM
CCCCCCCCCCCN(CCCCCCCCCCC)C(=O)NC(CCC(=O)O)(CCC(=O)O)CCC(=O)O,VA14,18 µg/mL
O=C(Nc1cnccn1)c1ccccc1O,MY330/88,125 µM
CCCSc1ncnc2ccccc12,CNCTC MY66/72,63 µM
O=C(c1ccccc1)c1ccc(-c2ccc(Br)cc2)cc1,,742 µM
CCCCCCCOc1cccc(NC(=O)OCCN(C)C)c1,MY330/88,8 µM
FC(F)(F)C(F)(F)C(F)(F)C(F)(F)c1nc2cc(Cl)c(Cl)cc2[nH]1,MY330/88,8 µM
N#Cc1ccc(-n2c(=O)oc3ccccc3c2=O)cc1,CNCTC MY330/88,32 µM
NC(=S)c1cc(SCc2ccc(Br)cc2)ccn1,CNCTC MY330/88,7.94 µM
COc1ccc(NC(=O)OCC[NH+]2CCCC2)cc1,MY330/88,1000 µM
O=C(CCC(=O)Nc1cccc(Cl)c1)Nc1cccc(Cl)c1,NO 80/72,>1000 µM
CCSc1cc(C(N)=O)cc(Cl)n1,80/72,1000 µM
Cc1ccc2c(=O)n(-c3ccc(Br)cc3)c(=O)oc2c1,CNCTC MY330/88,16 µM
CC(C)(C)c1ccc(COC(Cn2ccnc2)c2ccc(Cl)cc2)cc1,CIP103317,1 µg/mL
O=C(c1ccc(-c2ccc(Br)cc2)cc1)c1ccc([N+](=O)[O-])cc1,,1309 µM
CC(C)(C)c1ccc(COC(Cn2ccnc2)c2ccccc2)cc1,CIP103317,4 µg/mL
Cc1c(CN2CCN(C)CC2)cc(-c2ccccc2Cl)n1-c1ccccc1,,>16 µg/mL
Cc1ccc(NC(=O)CCC(=O)Nc2ccc(C)c(C)c2)cc1C,NO 80/72,>1000 µM